# Article PMC3215231, “Arcanolysin is a cholesterol-dependent cytolysin of the human pathogen Arcanobacterium haemolyticum” (BMC Microbiology, 2011)
# Molecular target: T1, ALN (arcanolysin), His-ALN (Arcanobacterium haemolyticum, UniProt D7BPC7)
# T1 construct: gene Arch_1062
# Details: 5 HU toxin, 0.01-1 μM cholesterol in ethanol, 30 min at room temperature; human blood
compound,measurement,value
CC(C)CCC[C@@H](C)[C@H]1CC[C@H]2[C@@H]3CC=C4C[C@@H](O)CC[C@]4(C)[C@H]3CC[C@]12C [cholesterol],% activity retained at 0.5 μM cholesterol,41.4%
